Measurements reported in PMC5477490, “Human antibody 3E1 targets the HA stem region of H1N1 and H5N6 influenza A viruses” (2016).

Key:
[1] = target: HA ectodomain of A/California/04/2009(H1N1) with G205C and R220C (influenza A virus A/California/04/2009(H1N1)); assay: crystal structure
[2] = target: HA ectodomain of A/California/04/2009(H1N1) with G205C and R220C (influenza A virus A/California/04/2009(H1N1)); assay: not stated; purified HA ectodomain in solution; data in Supplementary Fig. 2

Substance: HA ectodomain of A/California/04/2009(H1N1) with G205C and R220C (domain or fragment)
- stoichiometry N [1]: 3
- stoichiometry N [2]: 3
